Measured values from several laboratories, pooled; numbers as filed in NIAID ChemDB.

Common to all: target-level tests; species: HIV-1; target: Protease

Blank or dashed fields: not listed here. a–b is a range or a potency band. ICn: concentration for n% inhibition. Rows are shuffled and stem from different studies.

{"compound": "CC(C)(C)NC(=O)[C@@H]1CCCN1C(=O)[C@@H](O)[C@H](Cc1ccccc1)NC(=O)[C@H](CC(N)=O)NC(=O)COc1ccc2ccccc2c1", "method": "HPLC", "endpoint": "IC50", "result": "0.012 µM"}
{"compound": "CC(C)C[C@H](NC(=O)[C@@H](NC(=O)CCCCCCCCCCCCCCC(=O)N[C@@H](CC(N)=O)C(=O)N[C@@H](Cc1ccccc1)C(=O)O)C(C)O)C(=O)N[C@@H](Cc1ccccc1)C(N)=O", "method": "HPLC", "endpoint": "IC50", "result": "5.5 µM"}
{"compound": "CC(C)C[C@H](NC(=O)[C@@H](NC(=O)CCCCCCCCCCCCCCC(=O)N[C@@H](CC(N)=O)C(=O)N[C@@H](Cc1ccc(O)cc1)C(=O)O)C(C)O)C(=O)N[C@@H](Cc1ccccc1)C(N)=O", "endpoint": "IC50", "result": "30 µM"}
{"compound": "CC(C)(C)NC(=O)[C@@H]1CSCN1C(=O)[C@@H](O)[C@H](Cc1ccccc1)NC(=O)c1ccc(O)cc1", "method": "HPLC", "endpoint": "IC50", "result": ">5 µM"}
{"compound": "O=C(N[C@@H](Cc1ccccc1)[C@@H](O)C[C@@H](Cc1ccccc1)C(=O)N[C@H]1c2ccccc2C[C@H]1O)O[C@H]1CCOC1", "endpoint": "IC50", "result": "0.00006 µM"}
{"compound": "COC(=O)N[C@@H]1CO[C@@H]2C[C@H](OC(=O)N[C@@H](Cc3ccccc3)[C@H](O)CN(CC(C)C)S(=O)(=O)c3ccc(OC)cc3)C[C@H]12", "method": "substrate cleavage / fluorescence", "endpoint": "Ki", "result": "0.0395 µM"}
{"compound": "CC(C)(C)OC(=O)N[C@@H](Cc1ccccc1)[C@@H](O)C[C@@H](Cc1ccc(C(C)(C)C)cc1)C(=O)N[C@H]1c2ccccc2C[C@H]1O", "method": "HPLC", "endpoint": "IC50", "result": "0.0001–0.01 µM"}
{"compound": "CC(C)(C)[C@H](N)C(=O)N[C@@H](Cc1ccccc1)[C@@H](O)[C@H](CO)[C@H](Cc1ccccc1)NC(=O)[C@@H](N)C(C)(C)C", "endpoint": "Ki", "result": ">12.5 µM"}
{"compound": "CC(C)C[C@H](NC(=O)[C@@H](NC(=O)CCCCCCCCCCCCCCC(=O)N[C@@H](Cc1ccc(N)cc1)C(=O)N[C@@H](Cc1ccccc1)C(=O)O)C(C)O)C(=O)N[C@@H](Cc1ccccc1)C(N)=O", "method": "HPLC", "endpoint": "IC50", "result": "0.6 µM"}
{"compound": "CC(C)C[C@H](NC(=O)[C@@H](NC(=O)CCCCCCCCCCCCCCC(=O)N(O)[C@@H](CCC(N)=O)C(=O)N[C@@H](Cc1ccccc1)C(=O)O)C(C)O)C(=O)N[C@@H](Cc1ccccc1)C(N)=O", "endpoint": "IC50", "result": "4.07 µM"}
{"compound": "CSC[C@H](NC(=O)COc1cccc(Nc2ccccc2)c1)C(=O)N[C@@H](Cc1ccccc1)[C@H](O)C(=O)N1CSC(C)(C)[C@H]1C(=O)NC(C)(C)C", "method": "HPLC", "endpoint": "IC50", "result": "0.0027 µM"}
{"compound": "CC(C)(C)NC(=O)[C@@H]1CCCN1C(=O)[C@@H](O)[C@H](Cc1ccccc1)NC(=O)[C@H](CC(N)=O)NC(=O)c1cnc2ccccc2n1", "method": "HPLC", "endpoint": "Ki", "strain": "IIIB", "result": "0.011 µM"}
{"compound": "CC(C)C[C@H](NC(=O)[C@@H](NC(=O)CCCCCCCCCCCCCCC(=O)N[C@@H](CC(N)=O)C(=O)N[C@@H](Cc1ccc(C(=O)c2ccccc2)cc1)C(=O)O)C(C)O)C(=O)N[C@@H](Cc1ccccc1)C(N)=O", "endpoint": "IC50", "result": "2.6 µM"}
{"compound": "CC(C)C[C@H](NC(=O)[C@@H](NC(=O)CCCCCCCCCCCCCCC(=O)N[C@@H](CC(N)=O)C(=O)N[C@@H](CCc1ccccc1)C(=O)O)C(C)O)C(=O)N[C@@H](Cc1ccccc1)C(N)=O", "method": "HPLC", "endpoint": "IC50", "result": "4.4 µM"}
{"compound": "CC(C)(C)NC(=O)c1ccccc1C[C@@H](O)[C@H](Cc1ccccc1)NC(=O)[C@H](CC(N)=O)NC(=O)Oc1ccc2ccccc2n1", "endpoint": "Ki", "result": ">12.5 µM"}
{"compound": "CC(C)C[C@H](NC(=O)[C@@H](NC(=O)CCCCCCCCCCCCCCC(=O)N[C@@H](Cc1ccc(N)cc1)C(=O)N[C@@H](Cc1ccccc1)C(=O)O)C(C)O)C(=O)N[C@@H](Cc1cc(I)c(Oc2cc(I)c(O)c(I)c2)c(I)c1)C(N)=O", "method": "HPLC", "endpoint": "Ki", "result": "0.0293 µM"}
{"compound": "Cc1ccccc1C(=O)N[C@@H](Cc1ccccc1)[C@H](O)C(=O)N1CSC[C@H]1C(=O)NC(C)(C)C", "method": "HPLC", "endpoint": "IC50", "result": ">5 µM"}
{"compound": "CCCC1(CCc2ccccc2)CC(O)=C(C(c2cccc(NS(=O)(=O)c3ccc(C(F)(F)F)cn3)c2)C(C)(C)C)C(=O)O1", "method": "fluorescence", "endpoint": "Ki", "result": "0.043 µM"}
{"compound": "CC(C)[C@H](NC(=O)[C@H](Cc1ccccc1)C[C@H](O)[C@H](Cc1ccccc1)NC(=O)OC(C)(C)C)C(=O)NCCCN(C)C", "method": "HPLC", "endpoint": "IC50", "result": "0.0001–0.01 µM"}
{"compound": "CC(C)C[C@H](NC(=O)[C@@H](NC(=O)CCCCCCCCCCCCCCC(=O)N[C@@H](Cc1ccc(O)cc1)C(=O)N[C@@H](Cc1ccccc1)C(=O)O)C(C)O)C(=O)N[C@@H](Cc1ccccc1)C(N)=O", "endpoint": "IC50", "result": "3.5 µM"}
{"compound": "CC(C)(C)[C@H](NC(=O)OCc1nc2ccccc2[nH]1)C(=O)N[C@@H](Cc1ccccc1)[C@H](O)[C@@H](CO)[C@H](Cc1ccccc1)NC(=O)[C@@H](NC(=O)OCc1nc2ccccc2[nH]1)C(C)(C)C", "endpoint": "Ki", "result": "0.34 µM"}
{"compound": "CCCC1(CCC)CC(O)=C(Cc2cccc(NS(=O)(=O)c3cn(C)cn3)c2)C(=O)O1", "method": "fluorescence", "endpoint": "IC50", "result": "1 µM"}
{"compound": "CCC[C@H](NC(=O)COc1cccc2ccccc12)C(=O)N[C@@H](Cc1ccccc1)[C@H](O)C(=O)N1CSC[C@H]1C(=O)NC(C)(C)C", "method": "HPLC", "endpoint": "IC50", "result": "0.0088 µM"}
{"compound": "CC(C)[C@H](NC(=O)[C@H](Cc1ccccc1)C[C@H](O)[C@H](Cc1ccccc1)NC(=O)OC(C)(C)C)C(=O)NCC(O)CO", "method": "HPLC", "endpoint": "IC50", "result": "0.0001–0.01 µM"}
{"compound": "CC[C@H](NC(=O)COc1cccc2cnccc12)C(=O)N[C@@H](Cc1ccccc1)[C@H](O)C(=O)N1CSC[C@H]1C(=O)NC(C)(C)C", "method": "HPLC", "endpoint": "Ki", "result": "0.002144 µM"}
{"compound": "CC(C)(C)C[C@H](NC(=O)OCc1ccccc1)C(=O)N[C@@H](Cc1ccccc1)[C@@H](CO)[C@H](O)[C@H](Cc1ccccc1)NC(=O)[C@@H](NC(=O)OCc1ccccc1)C(C)(C)C", "endpoint": "IC50", "result": "0.014 µM"}
{"compound": "Cc1c(N)cc(N)cc1C(=O)N[C@@H](Cc1ccccc1)[C@H](O)C(=O)N1CSC[C@H]1C(=O)NC(C)(C)C", "method": "HPLC", "endpoint": "IC50", "result": ">5 µM"}
{"compound": "CC(C)C[C@H](NC(=O)[C@H](Cc1ccccc1)C[C@H](O)[C@H](Cc1ccccc1)NC(=O)OC(C)(C)C)C(=O)N[C@@H](Cc1ccccc1)C(N)=O", "method": "HPLC", "endpoint": "IC50", "result": "0.0006 µM"}
{"compound": "CC[C@H](C)[C@H](NC(=O)[C@@H](NC(=O)CCCCCCCCCCCCCCC(=O)N[C@@H](CC(N)=O)C(=O)N[C@@H](CC1CCCCC1)C(=O)O)C(C)O)C(=O)N[C@@H](Cc1ccccc1)C(N)=O", "method": "HPLC", "endpoint": "IC50", "result": "0.77 µM"}
{"compound": "CC(C)(C)NC(=O)[C@@H]1CSCN1C(=O)[C@@H](O)[C@H](Cc1ccccc1)NC(=O)c1cc(O)cc(O)c1", "method": "HPLC", "endpoint": "IC50", "result": ">5 µM"}
{"compound": "CC(C)(C)NC(=O)[C@@H]1CCCN1C(=O)[C@@H](O)[C@H](Cc1ccccc1)NC(=O)[C@H](CC(N)=O)NC(=O)c1ccc2ccccc2n1", "method": "HPLC", "endpoint": "Ki", "strain": "IIIB", "result": "0.027 µM"}
{"compound": "CCCC1(CCc2ccccc2)CC(O)=C(C(CC)c2cccc(NS(=O)(=O)CCC)c2)C(=O)O1", "method": "fluorescence", "endpoint": "Ki", "result": ">1 µM"}
{"compound": "CC(C)C[C@H](NC(=O)[C@@H](NC(=O)CCCCCCCCCCCCCCC(=O)N[C@@H](CC(N)=O)C(=O)N[C@@H](Cc1cccc2ccccc12)C(=O)O)C(C)O)C(=O)N[C@@H](Cc1ccccc1)C(N)=O", "method": "HPLC", "endpoint": "IC50", "result": "2.9 µM"}
{"compound": "CC(C)[C@H](NC(=O)OCc1ccccc1)C(=O)O[C@@H](Cc1ccccc1)C(O)[C@H](Cc1ccccc1)OC(=O)[C@@H](NC(=O)OCc1ccccc1)C(C)C", "endpoint": "Ki", "result": "0.016 µM"}
{"compound": "CC(C)(C)OC(=O)[C@@H]1CCCN1C(=O)[C@@H](O)[C@H](Cc1ccccc1)NC(=O)[C@H](CC(N)=O)NC(=O)OCc1ccccc1", "method": "HPLC", "endpoint": "Ki", "strain": "IIIB", "result": "0.058 µM"}
{"compound": "CC(C)C[C@H](NC(=O)[C@@H](NC(=O)CCCCCCCCCCCCCCC(=O)N[C@@H](CC(N)=O)C(=O)N[C@@H](Cc1cccc2ccccc12)C(=O)O)C(C)O)C(=O)N[C@H](C(N)=O)C1CCCCC1", "method": "HPLC", "endpoint": "Ki", "result": "0.0652 µM"}
{"compound": "CC(C)(C)[C@H](N)C(=O)N[C@@H](Cc1ccccc1)[C@H](O)[C@@H](CO)[C@H](Cc1ccccc1)NC(=O)[C@@H](N)C(C)(C)C", "endpoint": "Ki", "result": ">1.25 µM"}

Again, the opening 4 rows:

compound,method,endpoint,strain,result
CC(C)(C)NC(=O)[C@@H]1CCCN1C(=O)[C@@H](O)[C@H](Cc1ccccc1)NC(=O)[C@H](CC(N)=O)NC(=O)COc1ccc2ccccc2c1,HPLC,IC50,-,0.012 µM
CC(C)C[C@H](NC(=O)[C@@H](NC(=O)CCCCCCCCCCCCCCC(=O)N[C@@H](CC(N)=O)C(=O)N[C@@H](Cc1ccccc1)C(=O)O)C(C)O)C(=O)N[C@@H](Cc1ccccc1)C(N)=O,HPLC,IC50,-,5.5 µM
CC(C)C[C@H](NC(=O)[C@@H](NC(=O)CCCCCCCCCCCCCCC(=O)N[C@@H](CC(N)=O)C(=O)N[C@@H](Cc1ccc(O)cc1)C(=O)O)C(C)O)C(=O)N[C@@H](Cc1ccccc1)C(N)=O,-,IC50,-,30 µM
CC(C)(C)NC(=O)[C@@H]1CSCN1C(=O)[C@@H](O)[C@H](Cc1ccccc1)NC(=O)c1ccc(O)cc1,HPLC,IC50,-,>5 µM